PubChem BioAssay AID1259414, Drosophila RNAi Screening Center – 2018
Aim: 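Fly genes that alter Wolbachia amount inside host cells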 (primary screen). Cell system: Drosophila JW18 cells infected with Wolbachia. Reagent: long dsRNA against Drosophila genes, 0.25 µg dsRNA per well of a 384-well plate. Time to read-out: 5 days. Treatment: cells persistently infected with Wolbachia before knock-down; no added drug. Measured: 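Imaged fluorescence in situ signal for Wolbachia 23S rRNA per DAPI-counted host cell, given as a robust z-score within each plate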. Scale: Wolbachia per cell robust z: higher = more Wolbachia per host cell than the plate typical. Active means: 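Active if absolute robust z reaches 1.5 in two or more of three replicates, leaving out multi- or no-target dsRNAs, genes unexpressed in JW18 and A1 wells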.
In all, the deposit lists about 24,000 reagents; below is a random part of those that have a named target and a result. In the full data, about 1,210 (5%) are marked active. 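Inactive calls also include excluded dsRNAs with several or no targets, genes unexpressed in JW18, and well A1, regardless of score.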 The numbers tell different reagents against one gene apart. A plus sign joins genes that one reagent is predicted to hit.

| Target gene | reagent | Wolbachia per cell robust z, rep 1 | Wolbachia per cell robust z, rep 2 | Wolbachia per cell robust z, rep 3 | call |
| --- | --- | --- | --- | --- | --- |
| CG34212 | 1 | 0.212 | 0.206 | 0.763 | inactive |
| CG43861 | 1 | -0.656 | -0.47 | -0.45 | inactive |
| CG43861 | 2 | -0.518 | -0.0731 | -0.632 | inactive |
| CG6650 | 1 | -0.0297 | -0.127 | 0.244 | inactive |
| GlcT (Glucosylceramide synthase) | 1 | -0.754 | -1.64 | -5.64 | active |
| GlcT (Glucosylceramide synthase) | 2 | -0.0221 | 0.801 | 0.0915 | inactive |
| eRF3 (eukaryotic translation release factor 3) | 1 | -0.156 | 0.947 | 0.317 | inactive |
| CG1231 | 1 | 0.256 | -1 | -2.13 | inactive |
| CG1231 | 2 | -0.252 | -1.05 | -1.66 | inactive |
| mle (maleless) | 1 | 0.369 | 0.19 | 0.902 | inactive |
| CG15109 | 1 | -0.181 | -0.826 | -0.32 | inactive |
| CG15109 | 2 | 0.801 | 0.0224 | -0.843 | inactive |
| EMC8-9 (ER membrane protein complex subunit 8/9) | 1 | -0.754 | 1.03 | 0.478 | inactive |

Limited to “Wolbachia per cell robust z, rep 3”, for 3 of the entries above:
CG43861 #2: -0.632
CG6650: 0.244
GlcT (Glucosylceramide synthase) #1: -5.64

Continued.
| Target gene | reagent | Wolbachia per cell robust z, rep 1 | Wolbachia per cell robust z, rep 2 | Wolbachia per cell robust z, rep 3 | call |
| --- | --- | --- | --- | --- | --- |
| CG5662 | 1 | 0.628 | -1.07 | 0.674 | inactive |
| Prosalpha1 + Prosalpha1R | 1 | -0.0457 | 1.83 | 2.19 | inactive |
| Prosalpha1 + Prosalpha1R | 2 | 0.424 | 0.0806 | 1.07 | inactive |
| CG6865 | 1 | -2.13 | -1.13 | 0.161 | inactive |
| kappaTry | 1 | 0.596 | -1.15 | -2.71 | inactive |
| Obp22a (Odorant-binding protein 22a) | 1 | -1.69 | -1.5 | 0.0238 | inactive |
| CG9981 | 1 | 1.74 | -0.799 | 0.166 | inactive |
| lok (loki) | 1 | -1.52 | -0.29 | -0.505 | inactive |
| lok (loki) | 2 | -0.757 | -1.32 | -2.37 | inactive |
| CG8944 | 1 | 0.526 | 0.47 | 0.576 | inactive |
| CG8944 | 2 | 0.137 | 0.42 | 0.902 | inactive |
| CG8944 | 3 | 0.483 | -0.512 | 0.484 | inactive |
| CG9498 | 1 | 0.05 | 0.773 | 2.18 | inactive |
| Nepl18 (Neprilysin-like 18) | 1 | 0.35 | -0.266 | -0.816 | inactive |
| mRpL50 (mitochondrial ribosomal protein L50) | 1 | -3.15 | -0.392 | 0.483 | inactive |
| mRpL50 (mitochondrial ribosomal protein L50) | 2 | 0.717 | 1.25 | 1.05 | inactive |
